This note sets out measurements from patent publication US8362201B2 (priority 2000, dated 2013).

For this series, the system named is newborn BALB/c mice. In words: Subcutaneous injection into newborn mice.

SMILES strings stand for the structures.

In the case of `CC[C@H](C)[C@H](NC(=O)CNC(=O)CNC(=O)[C@H](CC(C)C)NC(=O)[C@@H](NC(=O)CNC(=O)CNC(=O)[C@@H](NC(=O)[C@H](CC(C)C)NC(=O)CNC(=O)[C@@H]1CCCN1C(=O)CNC(=O)[C@H](CO)NC(=O)[C@H](CO)NC(=O)[C@@H](NC(=O)[C@@H]1CSSC[C@@H]2NC(=O)[C@H](CC(=O)O)NC(=O)[C@H](CCCNC(=N)N)NC(=O)[C@H](CC(N)=O)NC(=O)[C@H](CO)NC(=O)[C@H](CO)NC(=O)[C@@H]3CSSC[C@H](NC(=O)[C@H](C(C)C)NC(=O)[C@@H]4CCCN4C(=O)[C@H]([C@@H](C)O)NC(=O)[C@H](CC(C)C)NC(=O)[C@H](CCC(=O)O)NC(=O)[C@H](CSSC[C@H](NC(=O)[C@H](C)NC(=O)[C@H](CC(C)C)NC(=O)[C@@H](N)CC(C)C)C(=O)N[C@@H](CC(C)C)C(=O)N[C@@H](Cc4ccccc4)C(=O)NCC(=O)N[C@@H](CC(N)=O)C(=O)NCC(=O)N[C@@H](CCCNC(=N)N)C(=O)N3)NC2=O)C(=O)N[C@@H](CCCCN)C(=O)N[C@@H](CCCNC(=N)N)C(=O)NCC(=O)N[C@@H](CO)C(=O)N1)C(C)C)C(C)C)[C@@H](C)CC)C(=O)N[C@@H](CC(C)C)C(=O)O`, the “highest mouse dose without adverse effects relative to PD50 in crickets” value (800 pmol g^−1 in mice versus PD50 in crickets) is reported as 5 fold. Besides, under “subcutaneous, newborn BALB/c mice, doses up to 800 pmol g^−1, n=3”, the adverse effects result is reported as “did not provoke any adverse effects”.
